Experimental data reported in paper PMC12714102, “Chemical Mechanism of Allosteric and Asymmetric Dark Reversion in a Bacterial Phytochrome Uncovered by Cryo-EM” (Journal of the American Chemical Society, 2025).

Molecular target: the molecule itself
Assay: cryo-EM structure

B1: Pseudomonas aeruginosa bacteriophytochrome (PaBphP) (natural protein)
chain: MTSITPVTLANCEDEPIHVPGAIQPHGALVTLRADGMVLAASENIQALLGFVASPGSYLTQEQVGPEVLRMLEEGLTGNGPWSNSVETRIGEHLFDVIGHSYKEVFYLEFEIRTADTLSITSFTLNAQRIIAQVQLHNDTASLLSNVTDELRRMTGYDRVMAYRFRHDDSGEVVAESRREDLESYLGQRYPASDIPAQARRLYIQNPIRLIADVAYTPMRVFPALNPETNESFDLSYSVLRSVSPIHCEYLTNMGVRASMSISIVVGGKLWGLFSCHHMSPKLIPYPVRMSFQIFSQVCSAIVERLEQGRIAELLRVSTERRLALARRARDADDLFGALAHPDDGIAALIPCDGALVMLGGRTLSIRGDFERQAGNVLQRLQRDPERDIYHTDNWPQPSEDSPDGGDCCGVLAIRFHRQESGWIFWFRHEEVHRIRWGGKPEKLLTIGPSGPRLTPRGSFEAWEEVVRGHSTPWSETDLAIAEKLRLDLMELCLNHAAEVDRMRQRLIAVLGHDLRNPLQSISMAAALLSSSDTRTTELRQHISASSSRMERLVSQILDMSRLQSGIGLTVNPVDTDVSQLVRQIVCETDVAYPGLVIEIAIDPQVRAVVDPDRYAQVAANLLSNARHHGLPGRPVLVTLTRQGDEVCLSVLNETSGLSEAQLANLFEPFKRESADNQRNRNGLGIGLYISQAIAQAHQGRIDVDCRDDVITFCLRLPVRQAETGSSS
modifications: biliverdin chromophore (covalently bound bilin; attachment residue not given)
- stoichiometry N: 2
